Results of unrelated studies side by side (data: NIAID ChemDB).

All rows: growth or infection tests; agent: Mycobacterium avium complex; read-out: MIC90

A number after MIC or MFC names an inhibition level or a share of isolates.

compound | strain or isolate | value
O=C(O)c1cn(C2CC2)c2c(F)c(N3CCC(NC4CC4)C3)c(F)cc2c1=O | 14 strains | 8 µg/mL
CN(C)CC1CCN(c2c(F)cc3c(=O)c(C(=O)O)cn(C4CC4)c3c2F)C1 | - | 2 µg/mL
CN1CC2CCC1CN2c1c(F)cc2c(=O)c(C(=O)O)cn(C3CC3)c2c1F | 14 strains | 8 µg/mL
CCn1cc(C(=O)O)c(=O)c2cc(F)c(N3CCNCC3)nc21 | 16 isolates | 100 µg/mL
CC1(CN)CCN(c2c(F)cc3c(=O)c(C(=O)O)cn(C4CC4)c3c2F)C1 | - | 32 µg/mL
CO[C@H]1/C=C/O[C@@]2(C)Oc3c(C)c(O)c4c(O)c(c5c(c4c3C2=O)NC2(CCN(CC(C)C)CC2)N=5)=NC(=O)/C(C)=C\C=C\[C@H](C)[C@H](O)[C@@H](C)[C@@H](O)[C@@H](C)[C@H](OC(C)=O)[C@@H]1C | 52 strains | 1.56 µg/mL
O=C(O)c1cn(C2CC2)c2c(Cl)c(N3CCNCC3)c(F)cc2c1=O | 14 strains | 4 µg/mL
CC(=O)NC[C@H]1CN(c2ccc(N3CCOCC3)c(F)c2)C(=O)O1 | 13 isolates | 32 µg/mL
CO[C@H]1/C=C/O[C@@]2(C)Oc3c(C)c(O)c4c(O)c(c(/C=N/N5CCN(C)CC5)c(O)c4c3C2=O)NC(=O)/C(C)=C\C=C\[C@H](C)[C@H](O)[C@@H](C)[C@@H](O)[C@@H](C)[C@H](OC(C)=O)[C@@H]1C | 20 strains | >100 µg/mL
COC1CCN(c2c(F)cc3c(=O)c(C(=O)O)cn(C4CC4)c3c2F)C1 | 14 strains | 4 µg/mL
CCCN1CCN(c2cc(=O)c3nc4c(oc3c2)c2c(=O)c3c(O)c(C)c5c(c34)=C(O)[C@@](C)(O/C=C/[C@H](OC)[C@@H](C)[C@@H](OC(C)=O)[C@H](C)[C@H](O)[C@H](C)[C@@H](O)[C@@H](C)/C=C/C=C(/C)C(=O)N2)O5)CC1 | 18 strains | 6.25 µg/mL
CC[C@@H](CO)NCCN[C@@H](CC)CO | 32 isolates | 8 µg/mL
CC(C)(C)n1cc(C(=O)O)c(=O)c2cc(F)c(N3CCNCC3)nc21 | - | 4 µg/mL
CC[C@H]1OC(=O)[C@H](C)[C@@H](O[C@H]2C[C@@](C)(OC)[C@@H](O)[C@H](C)O2)[C@H](C)[C@@H](O[C@@H]2O[C@H](C)C[C@H](N(C)C)[C@H]2O)[C@](C)(O)C[C@@H](C)CN(C)[C@H](C)[C@@H](O)[C@]1(C)O | 32 isolates | 16 µg/mL
CCC1CN(c2c(F)cc3c(=O)c(C(=O)O)cn(C4CC4)c3c2F)CCN1 | 14 strains | 4 µg/mL
CCn1cc(C(=O)O)c(=O)c2cc(F)c(N3CCNC(C)C3)c(F)c21 | 16 isolates | 50 µg/mL
O=C(O)c1cn(C2CC2)c2c(F)c(N3CCNCC3)c(F)cc2c1=O | 14 strains | 4 µg/mL
NCC1CN(c2c(F)cc3c(=O)c(C(=O)O)cn(C4CC4)c3c2F)CC1c1ccccc1 | - | 16 µg/mL
CC1CCN(c2c(F)cc3c(=O)c(C(=O)O)cn(C4CC4)c3c2F)C1 | 14 strains | 8 µg/mL
C[C@@H]1CN(c2c(F)c(N)c3c(=O)c(C(=O)O)cn(C4CC4)c3c2F)C[C@H](C)N1 | - | 2–4 µg/mL
CN(C)C1CCN(c2c(F)cc3c(=O)c(C(=O)O)cn(C4CC4)c3c2F)C1 | 14 strains | 2 µg/mL
CO[C@H]1/C=C/O[C@@]2(C)Oc3c(C)c(O)c4c(O)c(c5c(c4c3C2=O)NC2(CCN(CC(C)C)CC2)N=5)=NC(=O)/C(C)=C\C=C\[C@H](C)[C@H](O)[C@@H](C)[C@@H](O)[C@@H](C)[C@H](OC(C)=O)[C@@H]1C | 50 isolates | 2 µg/mL
C[C@H]1COc2c(N3CCN(C)CC3)c(F)cc3c(=O)c(C(=O)O)cn1c23 | 16 isolates | 12.5 µg/mL
O=C(O)c1cn(C2CC2)c2c(F)c(N3CC4CC3CN4)c(F)cc2c1=O | 14 strains | 8 µg/mL
CC1CN(c2cc3c(c(CO)c2F)c(=O)c(C(=O)O)cn3C2CC2)CCN1 | - | 32 µg/mL
CC1COc2c(N3CCN(C)CC3)c(F)cc3c(=O)c(C(=O)O)cn1c23 | 16 isolates | 25 µg/mL
CC(N)C1CCN(c2nc3c(cc2F)c(=O)c(C(=O)O)cn3C2CC2)C1 | - | 32 µg/mL
CC[C@H]1OC(=O)[C@H](C)C(=O)[C@H](C)[C@@H](O[C@@H]2O[C@H](C)C[C@H](N(C)C)[C@H]2O)[C@](C)(OC)C[C@@H](C)C(=O)[C@H](C)[C@H]2N(CCCCn3cnc(-c4cccnc4)c3)C(=O)O[C@]12C | 24 isolates (HIV+) | 128 µg/mL
Cc1cc2nc3c(=O)[nH]c(=O)nc-3n(C[C@H](O)[C@H](O)[C@H](O)CO)c2cc1C | 32 isolates | 128 µg/mL
O=C(O)c1cn(-c2ccc(F)cc2F)c2cc(N3CCNCC3)c(F)cc2c1=O | 14 strains | 8 µg/mL
C[C@@H]1CN(c2c(F)c(N)c3c(=O)c(C(=O)O)cn(C4CC4)c3c2F)C[C@H](C)N1 | 20 strains | 6.25 µg/mL

Repeating the final 4 entries:

compound,strain or isolate,value
CC[C@H]1OC(=O)[C@H](C)C(=O)[C@H](C)[C@@H](O[C@@H]2O[C@H](C)C[C@H](N(C)C)[C@H]2O)[C@](C)(OC)C[C@@H](C)C(=O)[C@H](C)[C@H]2N(CCCCn3cnc(-c4cccnc4)c3)C(=O)O[C@]12C,24 isolates (HIV+),128 µg/mL
Cc1cc2nc3c(=O)[nH]c(=O)nc-3n(C[C@H](O)[C@H](O)[C@H](O)CO)c2cc1C,32 isolates,128 µg/mL
O=C(O)c1cn(-c2ccc(F)cc2F)c2cc(N3CCNCC3)c(F)cc2c1=O,14 strains,8 µg/mL
C[C@@H]1CN(c2c(F)c(N)c3c(=O)c(C(=O)O)cn(C4CC4)c3c2F)C[C@H](C)N1,20 strains,6.25 µg/mL

Rows are shuffled and stem from different studies. a–b is a range or a potency band. An empty or dashed field is not shown.